## Potato spindle tuber viroid, loop 15: variant abundance in plants

Data from the supplement of Wu et al. 2024, doi:10.1371/journal.ppat.1012142.

The pool varies loop 15 of the PSTVd intermediate strain in the pattern GGAAACCGNNNNNNC; wild type is GGAAACCGCUACUAC (upper and lower strand joined, each 5' to 3', the first 7 letters being the upper strand, closing pairs included).

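A pool of all variants was put on leaves of three Nicotiana benthamiana plants. Progeny were sequenced from the inoculated region (day 5), the margin of the inoculated leaf (day 10) and systemic leaves (day 12).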

Numbers give reads per thousand; 0 = not seen among the reads, higher = more abundant. Each site shows the three plants. "Pool" is the share in the plasmid pool used as inoculum, on the same scale. The inoculated region was read from the minus strand, the other sites from the plus strand. Sequences that differ at fixed positions probably stem from PCR or sequencing errors, and defective variants can be carried along by functional ones. With 43,870-66,106 reads a sample, very low values are single reads. For reference, wild type rose from 33.9 per thousand in the pool to 202, 200, 159 (inoculated region), 724, 746, 710 (leaf margin) and 856, 883, 880 (systemic leaves).

| sequence | pool | inoculated region | leaf margin | systemic leaves |
|---|---|---|---|---|
| GGAAACCGGACAGGC | 0.288 | 0.0491 / 0.129 / 0.0571 | 0 / 0 / 0.0200 | 0 / 0 / 0 |
| GGAAACCGCAAAGGC | 0.144 | 0.0655 / 0.161 / 0.114 | 0 / 0 / 0 | 0.0161 / 0 / 0 |
| GGAAACCGGGCAUGC | 0.208 | 0.0983 / 0.0643 / 0.133 | 0 / 0 / 0 | 0.0161 / 0 / 0 |
| GGAAACCGUUUACGC | 0.336 | 0.197 / 0.193 / 0.114 | 0.0323 / 0 / 0 | 0.0161 / 0 / 0 |
| GGAAACCGAAUUAAC | 0.112 | 0.0983 / 0.177 / 0.114 | 0.0162 / 0.0223 / 0 | 0 / 0 / 0 |
| GGAAACCGACUCGAC | 0.224 | 0.131 / 0.145 / 0.0952 | 0 / 0 / 0.0200 | 0 / 0 / 0 |
| GGAAACCGUUAUAGC | 0.256 | 0.295 / 0.353 / 0.343 | 0.0970 / 0.111 / 0.0801 | 0.0161 / 0.0454 / 0.114 |
| GGAAACCGAGUUCGC | 0.240 | 0.0491 / 0.0803 / 0.0571 | 0 / 0 / 0 | 0 / 0 / 0 |
| GGAAACCGCGCGUUC | 0.240 | 0.360 / 0.273 / 0.324 | 0.0485 / 0.0891 / 0.240 | 0.0161 / 0.0908 / 0.0912 |
| GGAAACCGAUUGAUC | 0.272 | 0.377 / 0.305 / 0.114 | 0 / 0.0223 / 0.0401 | 0 / 0 / 0 |
| GGAAACCGUCUAUAC | 0.240 | 0.311 / 0.289 / 0.343 | 0.178 / 0.0668 / 0.200 | 0.0322 / 0.0908 / 0.0228 |
| GGAAACCGCAAUUCC | 0.144 | 0.0819 / 0.241 / 0.0762 | 0.0162 / 0.0223 / 0.0200 | 0 / 0 / 0 |
| GGAAACCGCCUUGAC | 0.208 | 0.115 / 0.0964 / 0.133 | 0.0323 / 0 / 0.0200 | 0 / 0 / 0 |
| GGAAACCGGCCGCCC | 0.256 | 0.115 / 0.112 / 0.114 | 0 / 0 / 0.0200 | 0 / 0 / 0 |
| GGAAACCGGCUAGAC | 0.208 | 0.131 / 0.112 / 0.0952 | 0 / 0 / 0 | 0 / 0 / 0 |
| GGAAACCGCCUCAAC | 0.288 | 0.246 / 0.241 / 0.267 | 0.0323 / 0.0445 / 0 | 0.0161 / 0 / 0 |
| GGAAACCGUAGUCCC | 0.176 | 0.115 / 0.112 / 0.0571 | 0 / 0 / 0.0200 | 0 / 0 / 0 |
| GGAAACCGCUAUGCC | 0.192 | 0.311 / 0.177 / 0.152 | 0.0162 / 0.0223 / 0.0401 | 0.0161 / 0.0151 / 0 |
| GGAAACCGUUCCGCC | 0.288 | 0.0655 / 0.0803 / 0.133 | 0.0323 / 0.0223 / 0.0200 | 0 / 0 / 0 |
| GGAAACCGCACCACC | 0.256 | 0.0983 / 0.177 / 0.114 | 0.0162 / 0.0223 / 0.0200 | 0.0161 / 0 / 0 |
| GGAAACCGUACUCUC | 0.304 | 0.147 / 0.112 / 0.0571 | 0.0162 / 0 / 0 | 0.0161 / 0 / 0 |
| GGAAACCGAACUCGC | 0.144 | 0.0655 / 0.0964 / 0.0952 | 0 / 0 / 0 | 0.0161 / 0 / 0 |
| GGAAACCGCUAGGCC | 0.336 | 0.147 / 0.0803 / 0.114 | 0 / 0 / 0 | 0 / 0 / 0 |
| GGAAACCGUAGCUCC | 0.304 | 0.0328 / 0.0803 / 0.0762 | 0.0162 / 0 / 0 | 0 / 0 / 0 |
| GGAAACCGAUAUGUC | 0.256 | 0.213 / 0.161 / 0.152 | 0.0162 / 0 / 0.0401 | 0.0161 / 0 / 0 |
| GGAAACCGGAAGCAC | 0.288 | 0.0655 / 0.241 / 0.133 | 0 / 0.0223 / 0.0200 | 0.0161 / 0 / 0 |
| GGAAACCGGGGGAGC | 0.256 | 0.0655 / 0.0964 / 0.114 | 0 / 0 / 0.0601 | 0 / 0 / 0 |
| GGAAACCGGGUAGCC | 0.112 | 0.0983 / 0.0803 / 0.0762 | 0 / 0.0223 / 0 | 0 / 0 / 0 |
| GGAAACCGGCUGUGC | 0.240 | 0.0983 / 0.0321 / 0.0571 | 0 / 0.0445 / 0 | 0 / 0 / 0 |
| GGAAACCGGAUCCGC | 0.0960 | 0.180 / 0.161 / 0.114 | 0.0162 / 0 / 0.0200 | 0.0161 / 0 / 0 |
| GGAAACCGGGUGAUC | 0.176 | 0.0983 / 0.0964 / 0.0762 | 0 / 0 / 0 | 0 / 0 / 0 |
| GGAAACCGUCCCUUC | 0.320 | 0.360 / 0.273 / 0.476 | 0.178 / 0.0445 / 0.200 | 0.0161 / 0 / 0 |
| GGAAACCGCGCAAUC | 0.272 | 0.0491 / 0.129 / 0.0571 | 0.0162 / 0.0445 / 0 | 0.0483 / 0 / 0 |
| GGAAACCGAUGUGUC | 0.192 | 0.0819 / 0.0964 / 0.0762 | 0 / 0 / 0.0200 | 0 / 0 / 0 |
| GGAAACCGCGUGGGC | 0.208 | 0.0491 / 0.0803 / 0.0190 | 0 / 0 / 0.0401 | 0 / 0 / 0 |
| GGAAACCGUCUCGCC | 0.208 | 0.164 / 0.0964 / 0.133 | 0.0162 / 0 / 0 | 0 / 0 / 0 |
| GGAAACCGGAGUGAC | 0.352 | 0.0328 / 0.0803 / 0.114 | 0 / 0 / 0 | 0 / 0 / 0 |
| GGAAACCGAUGACUC | 0.240 | 0.0655 / 0.0803 / 0.209 | 0.0162 / 0 / 0.0401 | 0 / 0 / 0 |
| GGAAACCGCACGAAC | 0.176 | 0.393 / 0.353 / 0.457 | 0.178 / 0.111 / 0.0601 | 0.0322 / 0 / 0 |
| GGAAACCGUACUGGC | 0.240 | 0.164 / 0.0964 / 0.152 | 0 / 0 / 0.0200 | 0 / 0 / 0.0228 |
| GGAAACCGGUGUGCC | 0.176 | 0.0655 / 0.0643 / 0.171 | 0.0162 / 0 / 0 | 0 / 0 / 0 |
| GGAAACCGACAGAGC | 0.224 | 0.115 / 0.0643 / 0.114 | 0.0162 / 0 / 0 | 0 / 0 / 0 |
| GGAAACCGACGCGUC | 0.208 | 0.0328 / 0.0803 / 0.133 | 0 / 0 / 0 | 0.0161 / 0 / 0 |
| GGAAACCGAAUUUAC | 0.304 | 0.115 / 0.145 / 0.0952 | 0.0323 / 0 / 0 | 0.0322 / 0 / 0 |
| GGAAACCGGCGUCGC | 0.224 | 0.0819 / 0.112 / 0.228 | 0 / 0 / 0 | 0 / 0.0151 / 0 |
| GGAAACCGGUCCGCC | 0.288 | 0.0819 / 0.145 / 0.133 | 0 / 0.0223 / 0 | 0 / 0 / 0 |
| GGAAACCGCGAUUGC | 0.272 | 0.344 / 0.241 / 0.514 | 0.146 / 0.134 / 0.160 | 0.0644 / 0.0908 / 0.0684 |
| GGAAACCGUGGGCGC | 0.160 | 0.0655 / 0.0964 / 0.0762 | 0.0162 / 0.0223 / 0 | 0 / 0 / 0 |

A selection of 3 entries from above:

| sequence | pool | inoculated region | leaf margin | systemic leaves |
|---|---|---|---|---|
| GGAAACCGAAUUUAC | 0.304 | 0.115 / 0.145 / 0.0952 | 0.0323 / 0 / 0 | 0.0322 / 0 / 0 |
| GGAAACCGGAAGCAC | 0.288 | 0.0655 / 0.241 / 0.133 | 0 / 0.0223 / 0.0200 | 0.0161 / 0 / 0 |
| GGAAACCGCACCACC | 0.256 | 0.0983 / 0.177 / 0.114 | 0.0162 / 0.0223 / 0.0200 | 0.0161 / 0 / 0 |